Results reported in patent US20220204592A1 (VISTERRA, published 2022).

Molecular target: H1 hemagglutinin (A/California/07/09) (influenza A virus A/California/07/09 …)

B1: Ab 032 (antibody, V domains shown)
VH: QVQLLETGGGLVKPGQSLKLSCAASGFTFTSYAMHWVRQPPGKGLEWVAVVSYDGNYKYYADSVQGRFTISRDNSKNTLYLQMNSLRAEDTAVYYCAKDSRLRSLLYFEWLSQGYFNPWGQGTTLTVSS
VL: DIQMTQSPSSLSASVGDRVTITCRSSQSITFNYKNYLAWYQQKPGKAPKLLIYWGSYLESGVPSRFSGSGSGTDFTLTISSLQPEDFATYYCQQHYRTPPSFGQGTKVEIK
With B1 the Kd was 0.016 nM, the koff was 2.45e-05 s⁻¹ and the kon was 1.55e+06 M⁻¹ s⁻¹.
